Anti-infective test results gathered from many reports (values: NIAID ChemDB through PubChem).

Shared fields: enzyme or target tests; read-out: IC50

Rows are shuffled and stem from different studies. Blank or dashed fields: not listed here. a–b is a range or a potency band. ICn is the concentration giving n% inhibition.

O=C(Cc1cccnc1)C1C(=O)CC(CCc2cccc(Cl)c2)(C2CCCC2)OC1=O ; protein: Nonstructural protein 5B ; organism: Hepatitis C virus ; result: 1–10 µM
O=C(O)C(Cc1ccccc1)N(Cc1cc(-c2ccc(Cl)cc2Cl)cs1)C(=O)c1ccc(Cl)cc1Cl ; protein: RNA-dependent RNA polymerase ; organism: Hepatitis C virus ; result: <5 µM
C=CC1CC1(NC(=O)[C@@H]1C[C@@H](Oc2cc(-c3ccccc3)nc3cc(OC)ccc23)CN1C(=O)[C@@H](NC(=O)OC(C)(C)C)C(C)(C)C)C(=O)NS(=O)(=O)C1(Br)CC1 ; protein: NS3/NS4A protease ; strain: BMS ; organism: Hepatitis C virus ; result: <0.05 µM
COc1cccc(CN(C(=O)C2CCC2)c2cc(-c3ccccc3)sc2C(=O)O)c1 ; protein: NS3 ATPase ; organism: Hepatitis C virus ; result: 5–20 µM
Cc1cccc(-c2ccc(CN(C(=O)c3ccc(Cl)cc3Cl)[C@@H](Cc3ccccc3)C(=O)O)o2)c1 ; protein: RNA-dependent RNA polymerase ; organism: Hepatitis C virus ; result: <5 µM
C=CC1CC1(NC(=O)[C@@H]1C[C@@H](Oc2cc(-c3ccccc3)nc3cc(OC)ccc23)CN1C(=O)[C@@H](NC(=O)OC(C)(C)C)C(C)(C)C)C(=O)NS(=O)(=O)C1(C2=CCCCC2)CC1 ; protein: NS3/NS4A protease ; strain: BMS ; organism: Hepatitis C virus ; result: 0.05–0.5 µM
O=C(O)c1cc2nc(-c3ccc(Cc4ccccc4)cc3)c(C3CCCCC3)c(=O)n2[nH]1 ; protein: RNA-dependent RNA polymerase ; organism: Hepatitis C virus ; result: 1–10 µM
C=CC1CC1(NC(=O)[C@@H]1C[C@@H](Oc2cc(-c3ccccc3)nc3cc(OC)ccc23)CN1C(=O)[C@@H](NC(=O)OC1CCCC1)C(C)(C)C)C(=O)NS(=O)(=O)C1(C)CC1 ; protein: NS3/NS4A protease ; strain: BMS ; organism: Hepatitis C virus ; result: <0.05 µM
CC1(c2ccc(CCC3(C4CCCC4)CC(=O)CC(=O)O3)cc2Cl)CC(=O)CC(=O)O1 ; protein: Nonstructural protein 5B ; organism: Hepatitis C virus ; result: <1 µM
O=C(O)[C@H](Cc1ccccc1)N(Cc1ccc(-c2ccccc2[N+](=O)[O-])o1)C(=O)c1ccc(Cl)cc1Cl ; protein: RNA-dependent RNA polymerase ; organism: Hepatitis C virus ; result: <5 µM
CCNc1cccnc1N1CCN(C(=O)c2ccc(C(=O)NCCO)cn2)CC1 ; protein: Reverse transcriptase ; organism: Hepatitis B virus ; result: 0.007 µg/mL
COC(=O)c1ccc(-c2cnc3ccc4c(C(F)(F)F)cc(C(F)(F)F)nc4n23)cc1 ; method: luciferase / reporter gene ; protein: Envelope glycoprotein 2 ; strain: JFH-1 ; organism: Hepatitis C virus ; result: 13.8 µM
Cc1ccc(C(=O)N(c2cc(-c3ccccc3)sc2C(=O)O)C(C)C)c(C(N)=O)c1 ; protein: NS3 ATPase ; organism: Hepatitis C virus ; result: 5–20 µM
Cc1cc(C)n2nc(SC3=C(O)CC(CCc4ccc(OC(C)C)c(Cl)c4)(C4CCCC4)OC3=O)nc2n1 ; protein: Nonstructural protein 5B ; organism: Hepatitis C virus ; result: <1 µM
CC(C)CNC(=O)c1ccc(C(=O)N2CCN(c3ncccc3NC(C)C)CC2)nc1 ; protein: Reverse transcriptase ; organism: Hepatitis B virus ; result: 0.002 µg/mL
COc1ccc(-c2cnc3c(-c4nn[nH]n4)cnn3c2C2CCCCC2)cc1 ; protein: RNA-dependent RNA polymerase ; organism: Hepatitis C virus ; result: 1–10 µM
O=C(O)[C@H](Cc1ccccc1)N(Cc1ccc(-c2cccc(F)c2)o1)C(=O)c1ccc(Cl)cc1Cl ; protein: RNA-dependent RNA polymerase ; organism: Hepatitis C virus ; result: <5 µM
CCCN(NC(=O)[C@H]1C[C@@H](OCc2ccccc2)CN1C(=O)[C@@H](NC(=O)[C@@H](OC(=O)[C@@H](CC(=O)O)NC(=O)[C@H](CC(=O)O)NC(C)=O)[C@H](C)CC)C(C)C)C(=O)NCc1ccc2c(c1)OCO2 ; protein: Serine protease ; organism: Hepatitis C virus ; result: 0.5 µM
O=C(O)c1cc2ncc(-c3ccccc3)c(-c3ccc(OCc4ccccc4)cc3)n2n1 ; protein: RNA-dependent RNA polymerase ; organism: Hepatitis C virus ; result: >10 µM
FC(F)(F)c1cc(C(F)(F)F)c2ccc3ncc(-c4ccccc4)n3c2n1 ; method: luciferase / reporter gene ; protein: Envelope glycoprotein 2 ; organism: Hepatitis C virus ; result: 12 µM
O=C(O)c1cc2nc(-c3ccc(Oc4ccccc4)cc3)cc(-c3cc(Cl)cc(Cl)c3)n2n1 ; protein: RNA-dependent RNA polymerase ; organism: Hepatitis C virus ; result: >10 µM
O=C1CC(=O)OC(CCc2ccc(C(=O)N3CCOCC3)cc2)(C2CCCC2)C1 ; protein: Nonstructural protein 5B ; organism: Hepatitis C virus ; result: >50 µM
Cc1ccccc1S(=O)(=O)Nc1cc(-c2ccccn2)sc1C(=O)O ; protein: NS3 ATPase ; organism: Hepatitis C virus ; result: <5 µM
COc1ccc(-c2cc(-c3ccc(C(F)(F)F)cc3)nc3cc(C(=O)O)nn23)cc1 ; protein: RNA-dependent RNA polymerase ; organism: Hepatitis C virus ; result: >10 µM
COc1cc(OC)c(CCC2(C3CCCC3)CC(O)=C(SC3=NCCCN3)C(=O)O2)cc1Cl ; protein: Nonstructural protein 5B ; organism: Hepatitis C virus ; result: <1 µM
O=C(O)C(Cc1ccccc1)N(Cc1ccc(-c2ccncc2)o1)C(=O)c1ccc(Cl)cc1Cl ; protein: RNA-dependent RNA polymerase ; organism: Hepatitis C virus ; result: <5 µM
O=C(Nc1nn[nH]n1)c1cc2nc(-c3ccc(OCc4ccccc4)cc3)c(C3CCCCC3)c(=O)n2[nH]1 ; protein: RNA-dependent RNA polymerase ; organism: Hepatitis C virus ; result: 1–10 µM
O=C(O)C(Cc1ccccc1)N(Cc1ccc(-c2cc(F)cc(F)c2)s1)C(=O)c1ccc(Cl)cc1Cl ; protein: RNA-dependent RNA polymerase ; organism: Hepatitis C virus ; result: <5 µM
Cc1ccc(-c2cc3c(C(F)(F)F)cc(C(F)(F)F)nc3n3c(-c4ccc(C)cc4)cnc23)cc1 ; method: luciferase / reporter gene ; protein: Envelope glycoprotein 2 ; strain: JFH-1 ; organism: Hepatitis C virus ; result: >20 µM
CC(C)Sc1ccc(-c2cnc3c(C(=O)O)cnn3c2C2CCCCC2)cc1 ; protein: RNA-dependent RNA polymerase ; organism: Hepatitis C virus ; result: 1–10 µM
Cc1ccc(S(=O)(=O)N(C)c2cc(-c3ccccc3O)sc2C(=O)O)cc1 ; protein: NS3 ATPase ; organism: Hepatitis C virus ; result: 5–20 µM
CCNc1cccnc1N1CCN(C(=O)c2ccc(C(=O)NCCOC)cn2)CC1 ; protein: Reverse transcriptase ; organism: Hepatitis B virus ; result: 0.049 µg/mL
O=C(O)c1cc2nc(-c3cccc(Cl)c3)cc(-c3ccc(Cl)cc3Cl)n2n1 ; protein: RNA-dependent RNA polymerase ; organism: Hepatitis C virus ; result: >10 µM
C#CCN(C(=O)c1ccc(Cl)cc1Cl)[C@@H](Cc1ccccc1)C(=O)O ; protein: RNA-dependent RNA polymerase ; organism: Hepatitis C virus ; result: 5–20 µM
C=C[C@H]1C[C@@]1(NC(=O)[C@@H]1C[C@@H](Oc2cc(-c3ccccc3)nc3cc(OC)ccc23)CN1C(=O)[C@@H](NC(=O)OC(C)(C)C)C(C)(C)C)C(=O)NS(=O)(=O)C1(CC(C)C)CC1 ; protein: NS3/NS4A protease ; strain: BMS ; organism: Hepatitis C virus ; result: <0.05 µM
CC(C)CNc1cccnc1N1CCN(C(=O)c2ccc(C(=O)NC(C)C)cn2)CC1 ; protein: Reverse transcriptase ; organism: Hepatitis B virus ; result: 0.005 µg/mL
CN(C(=O)c1ccc(C(C)(C)C)cc1)c1cc(-c2ccccc2)sc1C(=O)O ; protein: NS3 ATPase ; organism: Hepatitis C virus ; result: 5–20 µM
FC(F)(F)c1cc(C(F)(F)F)c2ccc3ncc(-c4cccs4)n3c2n1 ; method: luciferase / reporter gene ; protein: Envelope glycoprotein 2 ; strain: JFH-1 ; organism: Hepatitis C virus ; result: 8.2 µM
COc1ccc(-c2cc(N(C)C(=O)c3ccc(C)cc3)c(C(=O)O)s2)cc1 ; protein: NS3 ATPase ; organism: Hepatitis C virus ; result: 5–20 µM
CC(C)NC(=O)c1ccc(C(=O)N2CCN(c3ncccc3NC(C)C)CC2)nc1 ; protein: Reverse transcriptase ; organism: Hepatitis B virus ; result: 0.149 µg/mL
Cc1ccccc1S(=O)(=O)Nc1cc(-c2sccc2C)sc1C(=O)O ; protein: NS3 ATPase ; organism: Hepatitis C virus ; result: 5–20 µM
COc1cc(C)c(S(=O)(=O)N(Cc2ccc(C)cc2)[C@@H](Cc2ccccc2)C(=O)O)c(C)c1C ; protein: RNA-dependent RNA polymerase ; organism: Hepatitis C virus ; result: 5–20 µM

Repeating the final 4 entries:

SMILES | method | protein | strain | organism | result
COc1ccc(-c2cc(N(C)C(=O)c3ccc(C)cc3)c(C(=O)O)s2)cc1 | - | NS3 ATPase | - | Hepatitis C virus | 5–20 µM
CC(C)NC(=O)c1ccc(C(=O)N2CCN(c3ncccc3NC(C)C)CC2)nc1 | - | Reverse transcriptase | - | Hepatitis B virus | 0.149 µg/mL
Cc1ccccc1S(=O)(=O)Nc1cc(-c2sccc2C)sc1C(=O)O | - | NS3 ATPase | - | Hepatitis C virus | 5–20 µM
COc1cc(C)c(S(=O)(=O)N(Cc2ccc(C)cc2)[C@@H](Cc2ccccc2)C(=O)O)c(C)c1C | - | RNA-dependent RNA polymerase | - | Hepatitis C virus | 5–20 µM